The target in the data set is NS1 (WSN) (Influenza A virus A/WSN/1/33 (H1N1)) (UniProt Q82506). Nature of the data set: pull-down. Conditions: protein in cells.

Sequences of proteins named here, by UniProt entry; tags and fusion partners are left off. A change or cut given only in a name is not applied to a line headed by its entry.
UniProt Q82506: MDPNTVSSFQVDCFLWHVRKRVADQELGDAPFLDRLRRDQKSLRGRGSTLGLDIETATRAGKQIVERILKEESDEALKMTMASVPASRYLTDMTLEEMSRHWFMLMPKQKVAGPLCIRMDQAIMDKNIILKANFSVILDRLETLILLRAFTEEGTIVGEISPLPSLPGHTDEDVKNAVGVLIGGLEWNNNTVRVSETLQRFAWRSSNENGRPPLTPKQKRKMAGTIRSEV

The exact form of at least one protein or probe is not confirmed. Where cells or extracts were used, other partners may take part.

Consider “GUCAGCAGUGCCUUAGCAGCACGUAAAUAUUGGCGUUAAGAUUCUAAAAUUAUCUCCAGUAUUAACUGUGCUGCUGAAGUAAGGUUGAC [pre-miR-16]”, for which the binding result is reported as “binds”.

These data come from US20170130229.
